# Results from patent publication US8242120B2 (priority 2007, dated 2012).
# Tested on: avian influenza A H5N1 viruses or hybrid viruses
# Test: Activity of 5-F carbodine against avian influenza A H5N1 viruses or hybrid viruses, in vitro
# Settings: values only in FIG. 2
smiles,measurement,value
Nc1nc(=O)n([C@@H]2C[C@H](CO)[C@@H](O)[C@H]2O)cc1F,activity in vitro against avian Influenza A H5N1 strain,quite active
